# Laboratory results: PubChem BioAssay AID624099 (ICCB-Longwood, 2012)
# Aim: 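Host factors E2 relies on to silence an HPV18 LCR reporter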 (primary screen)
# Cell system: human C33A cervical carcinoma cells (HPV-negative) stably expressing BPV1 E2 and an HPV18 LCR luciferase reporter
# Reagent: siRNA pool against human genes, 40 nM
# Timing: 72 h
# Measured: 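Per-well luciferase luminescence, z-scored on each plate against the plate mean and SD with control wells left out, then averaged across three replicate plates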
# Scale: mean z-score and z-score: higher = stronger reporter signal, weaker E2 silencing
# Call rule: 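Hit if mean z-score reaches 2 and two or more of three replicate z-scores also reach 2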
# Shown is a random part of about 21,000 reagents tested. Over the whole deposit, 497 (2.4%) are marked active. 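Higher z means weaker E2 silencing; only reporter increases were scored, and knock-downs that hurt cell survival may mask genuine repressor factors.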 A number with no mark means an inactive call.
gene,mean z-score,"z-score, replicate A","z-score, replicate B","z-score, replicate C"
RYK (receptor like tyrosine kinase),-0.51,-0.57,-0.49,-0.47
"METAP1D (methionyl aminopeptidase type 1D, mitochondrial)",-0.66,-0.71,-0.44,-0.84
BSN (bassoon presynaptic cytomatrix protein),0.6,0.66,0.73,0.41
PSAP (prosaposin),0.72,0.84,0.59,0.73
"PWP1 (PWP1 homolog, endonuclein)",0.81,1.19,0.91,0.34
"AZGP1 (alpha-2-glycoprotein 1, zinc-binding)",-0.25,-0.26,-0.4,-0.09
TSPAN7 (tetraspanin 7),1.45,1.16,1.82,1.38
GALNT14 (polypeptide N-acetylgalactosaminyltransferase 14),0.28,0.13,0.3,0.41
RANBP1P1 (RANBP1 pseudogene 1),1.51,1.53,1.08,1.93
ACVR2B (activin A receptor type 2B),0.56,0.55,0.86,0.25
OLMALINC,-0.19,-0.27,-0.26,-0.04
ZNF804B (zinc finger protein 804B),1.65,1.51,1.67,1.77
FOXK2 (forkhead box K2),1.09,1.24,1.14,0.89
LOC402604 (retired record),0.31,0.17,0.31,0.43
PCSK6 (proprotein convertase subtilisin/kexin type 6),-0.54,-0.15,-0.73,-0.74
MIEF2 (mitochondrial elongation factor 2),-1.16,-0.86,-1.37,-1.26
LOC253254 (retired record),1.31,1.48,0.96,1.51
ZNF213 (zinc finger protein 213),-0.05,-0.09,-0.11,0.04
GSTO1 (glutathione S-transferase omega 1),1.52,1.32,1.97,1.27
CNTNAP3 (contactin associated protein family member 3),1.13,1.34,1.32,0.72
BRICD5 (BRICHOS domain containing 5),2.17 (active),1.6,2.42,2.48
CTSZ (cathepsin Z),-0.26,-0.3,-0.15,-0.33
LEMD2 (LEM domain nuclear envelope protein 2),0.03,-0.14,-0.36,0.58
RNASE11 (ribonuclease A family member 11 (inactive)),0.42,0.4,0.33,0.54
ZNF57 (zinc finger protein 57),0.83,0.55,0.95,1
AANAT (aralkylamine N-acetyltransferase),-2.59,-2.56,-2.73,-2.48
AVP (arginine vasopressin),0.93,0.73,1.18,0.88
ITGA8 (integrin subunit alpha 8),0.07,0.16,0.1,-0.04
G6PC3 (glucose-6-phosphatase catalytic subunit 3),-0.03,-0.18,-0.05,0.14
USO1 (USO1 vesicle transport factor),-1.34,-1.29,-1.17,-1.56
CPAP (centrosome assembly and centriole elongation protein),-0.11,-0.08,0,-0.26
EIF3KP1,0.92,1.08,0.65,1.04
TCEAL1 (transcription elongation factor A like 1),0.98,0.75,1.53,0.65
ZNF780B (zinc finger protein 780B),-1,-1.17,-0.97,-0.85
ST18 (ST18 C2H2C-type zinc finger transcription factor),0.5,0.5,0.44,0.56
MRPS35 (mitochondrial ribosomal protein S35),-1.05,-1.28,-1.28,-0.57
C22orf15 (chromosome 22 open reading frame 15),0.46,0.4,0.34,0.65
TBC1D17 (TBC1 domain family member 17),-0.13,0.21,-0.47,-0.13
FAM167B (family with sequence similarity 167 member B),0.78,0.75,0.65,0.94

Ordered by “z-score, replicate C” (high to low): 2 of the entries above
gene,mean z-score,"z-score, replicate A","z-score, replicate B","z-score, replicate C"
LEMD2 (LEM domain nuclear envelope protein 2),0.03,-0.14,-0.36,0.58
RNASE11 (ribonuclease A family member 11 (inactive)),0.42,0.4,0.33,0.54
